Library screen at single concentrations

A: 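Whole-cell growth test on Mycobacterium tuberculosis, read after 4 days in a medium based on cholesterol and the lipid DPPC; the read-out is not stated. Compounds at 500 µM. The record gives no direction; compounds that gave an IC50 in retests scored well above the rest, so higher reads as more growth inhibition. Size under these conditions: about 18,000 compounds, about 900 of them at 50% or above in at least one test.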
B: 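Phenotypic screen: M. tuberculosis growth, glucose 7H9 medium, 3 days; the read-out is not stated. Concentration: 500 µM. Higher reads as more growth inhibition (inferred: compounds with an IC50 in retests scored well above the rest). Size under these conditions: about 18,000 compounds, about 1,400 of them at 50% or above in at least one test.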

Results are given as percent effect. The controls that fix the scale are not given in the record; negative values are as filed. This is part of a subset picked to be rich in strong results. A dash means the value is not listed here; it may have been measured.

structure | A | B
c1ccc(CCNCCCN2CCOCC2)cc1 | 21.35% | -
NCCCC(=O)N(Cc1ccccc1F)C1CCC1 | - | 68.11%
Cc1c[nH]c(C(=O)NC2COc3ccccc3C2)n1 (stereo unspecified) | 22.14% | 52.64%
CCS(=O)(=O)CCn1nnc(-c2ccc(Br)cc2)n1 | 33.36% | 49.11%
CN(C)CCO[C@H]1CCOC[C@H]1NC(=O)c1cn[nH]c1 | - | 3.971%
Cc1cc(NC(=O)NC(C)Cn2ccnc2)no1 (stereo unspecified) | - | -3.693%
Cc1cccc(NC(=O)NCc2ccnn2C)n1 | - | 21.56%
CSCC[C@H]1NC(=O)c2ccccc2NC1=O | -16.68% | -
CC(C)C(=O)NCc1ccc(F)cc1 | - | 14.09%
COc1ccccc1C(O)CN (stereo unspecified) | -0.2127% | 24.49%
O=S1(=O)CCN2CCNCC2C1 (stereo unspecified) | - | 18.85%
NCCNC(=O)c1nc(-c2ccccc2)no1 | - | 11.72%
O=C(Nc1cnccc1O)C1(c2ccccc2)CC1 | - | -2.331%
NC(=O)NCCCN1CCc2ccccc2C1 | 5.512% | 19.28%
O=c1ccc(F)cn1Cc1ncn(-c2ccccc2)n1 | - | -4.035%
Cc1noc(-c2ccc(C(N)=O)cc2)n1 | - | -3.39%
NCc1cccc2cc[nH]c12 | 52.88% | 64.15%
CC(C)c1nccn1CCCN | - | 8.878%
Cc1cc(Cl)ccc1NC(=O)CSc1n[nH]c(N)n1 | - | 52.24%
Cc1oc2ncn(C)c(=O)c2c1C(=O)N(C)C | - | -0.453%
O=c1cc(CSCCO)c2ccccc2[nH]1 | - | -6.629%
CCS(=O)(=O)c1ccc(CNc2ncccc2Cl)cc1 | - | 65.09%
N#Cc1cc(Br)ccc1N1CCN(C(=O)CO)CC1 | - | 38.99%
CC(C)(C)NC(=O)c1ccc(C(=O)NCC2CC2)cc1 | - | -1.858%
COc1cc(C)ccc1OC(C)C(=O)NC(N)=O (stereo unspecified) | - | 8.366%
Cc1cnc(C(=O)N2CCC(O)(CN(C)C)C2)cn1 (stereo unspecified) | - | 0.0122%
COC1CCN(C(=O)c2cnc3ccccn23)CC1 | 6.371% | -
CNCc1ccc(C)cn1 | - | 1.176%
COc1cc(C(C)=O)ccc1S(C)(=O)=O | -21.93% | -9.905%
CC(NC(=O)CCCN1CCCCC1)c1cnn(C)c1 (stereo unspecified) | - | 6.015%
Cc1ccc(C)c(S(=O)(=O)NC2CCS(=O)(=O)C2)c1 (stereo unspecified) | - | 24.82%
CN(C)C(CNS(=O)(=O)c1c[nH]cn1)C1CCCCC1 (stereo unspecified) | -11.59% | -
COc1ccc2c(c1)CCN2C(=O)C(C)(C)C#N | 80.64% | 68.31%
CC(C)n1cncc1CO | - | 9.153%
N#CCC1(O)CN(Cc2ccc3c(c2)CCO3)C1 | - | 8.247%
Fc1ccc(NCC2CCC3(CC2)OCCO3)nc1 | 77.02% | 66.64%
Cc1ccccc1CNC(=O)CCNS(C)(=O)=O | 0.6089% | -
O=C(NCc1ccncc1)C1COCCO1 (stereo unspecified) | - | -3.455%
Cc1n[nH]c(SCC(=O)Nc2ccccn2)n1 | -3.599% | -
COC(=O)C(C)(CNC(C)=O)c1ccccc1 (stereo unspecified) | -0.6342% | -
Cc1ccc(-n2nnc(C(N)=O)c2C)cc1 | - | -5.351%
O=C(NCc1cc[nH]n1)N1CCc2sccc2C1 | 3.401% | -

5 of the entries, repeated:

| structure | A | B |
|---|---|---|
| `CC(C)n1cncc1CO` | - | 9.153% |
| `COc1ccc2c(c1)CCN2C(=O)C(C)(C)C#N` | 80.64% | 68.31% |
| `COC(=O)C(C)(CNC(C)=O)c1ccccc1` (stereo unspecified) | -0.6342% | - |
| `Cc1n[nH]c(SCC(=O)Nc2ccccn2)n1` | -3.599% | - |
| `O=c1cc(CSCCO)c2ccccc2[nH]1` | - | -6.629% |

From ChEMBL document CHEMBL3988442, “University of Dundee, Small-Polar-MMV Screening Library” (2021).